PubChem BioAssay AID624099 – ICCB-Longwood | 2012

- Assay: 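Host factors E2 relies on to silence an HPV18 LCR reporter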 (primary screen)
- Cells: human C33A cervical carcinoma cells (HPV-negative) stably expressing BPV1 E2 and an HPV18 LCR luciferase reporter
- Reagent: siRNA pool against human genes, 40 nM
- Timing: 72 h
- Measurement: 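Per-well luciferase luminescence, z-scored on each plate against the plate mean and SD with control wells left out, then averaged across three replicate plates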
- Scale: mean z-score and z-score: higher = stronger reporter signal, weaker E2 silencing
- Hit rule: 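Mean z ≥ 2 together with z ≥ 2 in two or more of the three replicates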
The deposit covers about 21,000 reagents; this is a random part of them. 497 of all reagents (2.4%) count as active. 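Higher z means weaker E2 silencing; only reporter increases were scored, and knock-downs that hurt cell survival may mask genuine repressor factors.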 Reagent sequences are not shown.

HACD4 (GeneID 401494) gave mean z-score 1.63; z-score, replicate A = 1.93; z-score, replicate B = 1.39; z-score, replicate C = 1.57; inactive.
Depletion of DCTN1 (GeneID 1639) gave: mean z-score -0.97; z-score, replicate A = -1.19; z-score, replicate B = -0.89; z-score, replicate C = -0.84; inactive.
FOXD2 (GeneID 2306) scored mean z-score 1.06; z-score, replicate A = 1.05; z-score, replicate B = 0.93; z-score, replicate C = 1.19; inactive.
THBS2 (GeneID 7058) gave mean z-score 1.37; z-score, replicate A = 1.39; z-score, replicate B = 1.25; z-score, replicate C = 1.47; inactive.
For SLC19A2 (GeneID 10560), the entry reads mean z-score 0.86; z-score, replicate A = 0.78; z-score, replicate B = 0.85; z-score, replicate C = 0.95; inactive.
With knock-down of LOC284890 (retired record) (GeneID 284890), the screen gave mean z-score 1.15; z-score, replicate A = 1.19; z-score, replicate B = 0.64; z-score, replicate C = 1.63; inactive.
Against ASB6 (GeneID 140459), the values are mean z-score 0.89; z-score, replicate A = 0.74; z-score, replicate B = 1.1; z-score, replicate C = 0.83; inactive.
Knock-down of PRKCA (GeneID 5578) resulted in: mean z-score 1; z-score, replicate A = 0.67; z-score, replicate B = 1.06; z-score, replicate C = 1.28; inactive.
For NUFIP1 (GeneID 26747), the entry reads mean z-score -0.76; z-score, replicate A = -0.6; z-score, replicate B = -0.81; z-score, replicate C = -0.87; inactive.
With knock-down of VWF (GeneID 7450) the results were mean z-score 0.21; z-score, replicate A = 0.35; z-score, replicate B = 0.58; z-score, replicate C = -0.3; inactive.
Knock-down of PLEKHB2 (GeneID 55041) gave: mean z-score -0.66; z-score, replicate A = -0.86; z-score, replicate B = -0.58; z-score, replicate C = -0.53; inactive.
Silencing of LOC400778 (retired record) (GeneID 400778) gave: mean z-score 0.2; z-score, replicate A = 0.23; z-score, replicate B = 0.03; z-score, replicate C = 0.33; inactive.
Against RBP2 (GeneID 5948), the values are mean z-score 0.35; z-score, replicate A = 0.27; z-score, replicate B = 0.36; z-score, replicate C = 0.42; inactive.
Against KRTAP22-1 (GeneID 337979), the entry reads mean z-score -0.84; z-score, replicate A = -0.54; z-score, replicate B = -1.07; z-score, replicate C = -0.91; inactive.
Silencing of FLJ45337 (retired record) (GeneID 400754) came out at: mean z-score 0.44; z-score, replicate A = 0.72; z-score, replicate B = 0.38; z-score, replicate C = 0.21; inactive.
Depletion of SKA3 (GeneID 221150) resulted in: mean z-score -1.1; z-score, replicate A = -1.13; z-score, replicate B = -1.08; z-score, replicate C = -1.08; inactive.
Against FBLL1 (GeneID 345630), the entry reads mean z-score -0.96; z-score, replicate A = -1.23; z-score, replicate B = -0.68; z-score, replicate C = -0.97; inactive.
After knock-down of RGS7 (GeneID 6000) the results were mean z-score 0.26; z-score, replicate A = 0.12; z-score, replicate B = 0.05; z-score, replicate C = 0.61; inactive.
With knock-down of LOC389782 (retired record) (GeneID 389782) the results were mean z-score -0.76; z-score, replicate A = -0.48; z-score, replicate B = -0.89; z-score, replicate C = -0.9; inactive.
FNTB (GeneID 2342) showed mean z-score -1.12; z-score, replicate A = -1.08; z-score, replicate B = -1.49; z-score, replicate C = -0.8; inactive.
IMMT (GeneID 10989) gave mean z-score 0.23; z-score, replicate A = 0.28; z-score, replicate B = 0.26; z-score, replicate C = 0.14; inactive.
Depletion of LOC388545 (retired record) (GeneID 388545) came out at: mean z-score 0.03; z-score, replicate A = 0.03; z-score, replicate B = 0.15; z-score, replicate C = -0.07; inactive.
Silencing of RHBDD1 (GeneID 84236) gave: mean z-score -1.3; z-score, replicate A = -1.26; z-score, replicate B = -1.27; z-score, replicate C = -1.35; inactive.
After knock-down of MRPS34 (GeneID 65993), the record shows mean z-score 0.5; z-score, replicate A = 0.35; z-score, replicate B = 0.48; z-score, replicate C = 0.66; inactive.
With knock-down of TRIO (GeneID 7204), the screen gave mean z-score -0.5; z-score, replicate A = -0.45; z-score, replicate B = -0.46; z-score, replicate C = -0.59; inactive.
Against C6orf118 (GeneID 168090), the entry reads mean z-score -0.6; z-score, replicate A = -0.41; z-score, replicate B = -0.67; z-score, replicate C = -0.72; inactive.
After knock-down of TBPL2 (GeneID 387332) the results were mean z-score 2.33; z-score, replicate A = 2.47; z-score, replicate B = 1.94; z-score, replicate C = 2.58; active.

Individual results from the entries so far:
THBS2 (GeneID 7058), z-score, replicate C → 1.47
For “mean z-score”, FOXD2 (GeneID 2306) reads 1.06
